Reference: patent US6686393B1, “Pharmaceutical compositions having antiviral activity against human cytomegalovirus” (Murdock International Corporation, priority 1990, dated 2004)
Read-outs that look alike come from different tables or passages of the source.

Tested on: human cytomegalovirus (HCMV), strain AD-169
Experiment: Antiviral test (plaque reduction) versus HCMV, strain AD-169, in MRC-5 cells
Type: cell-based
Parameters: TI50: unit not given beside the values
[1] = Table 9 summary, footnotes: ? = Slight Activity, N.A. = Not Active

For O=C1c2ccccc2C(=O)c2c1ccc(O)c2O [Alizarin, alizarin], the TI was “≈2” and the TI50 was “˜2”.
In the case of O=C1c2ccc(O)cc2C(=O)c2ccc(O)cc21 [Anthraflavic Acid, anthraflavic acid], the TI is reported as under 1.0.
Cc1cc(O)c2c(c1)C(C1c3cc(C)cc(O)c3C(=O)c3c(O)cc(O)cc31)c1cc(O)cc(O)c1C2=O (centres unmarked) [Emodin Bianthrone (d,1), emodin bianthrone] was tested, and the TI (Example 2, N.A. = Not Active) was under 1.0 and the TI [1] was under 1.0.
Cc1cc(O)c2c(c1)C(C1c3cc(C)cc(O)c3C(=O)c3c(O)cc(O)cc31)c1cc(O)cc(O)c1C2=O (stereo not drawn) [Emodin Bianthrone (meso), emodin bianthrone] gave a TI (Example 2, N.A. = Not Active) of under 1.0 and a TI [1] of under 1.0.
Cc1cc(O)c2c(c1)C(C1c3cc(C)cc(O)c3C(=O)c3c(O)cc(O)cc31)c1cc(O)cc(O)c1C2=O (centres unmarked) [Emodin Bianthrone (mixed), emodin bianthrone] gave a TI of 1.8.
O=C1c2ccc(O)c(O)c2C(=O)c2c(O)ccc(O)c21 [Quinalizarin, quinalizarin] showed a TI of 4 and a TI50 of 4.
protohypericin gave a TI of 2.
